From the supplement of paper PMC9844399
The entries are a selection whose mix differs from that of the whole data set.

Experiments:
[1] = system: HeLa; assay: nuclear count per well, robust Z-score vs DMSO; higher = more cells (less toxicity); conditions: 10 µM; 6 h
[2] = system: HeLa; assay: MALAT1 nuclear FISH intensity, robust Z-score vs DMSO; higher = more nuclear MALAT1 lncRNA, active = -3 or less; conditions: 10 µM; 6 h
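Throughout, for MALAT1 nuclear FISH intensity, robust Z-score vs DMSO: High-content confocal imaging of branched-DNA amplified FISH in 384-well plates, Hoechst-defined nuclei, score is well value minus plate DMSO median over DMSO robust SD, four wells per compound.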
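Throughout, for nuclear count per well, robust Z-score vs DMSO: Hoechst-stained nuclei counted by automated confocal imaging of four fields per well in 384-well plates, with the robust Z-score based on the per-plate DMSO median and robust SD.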

COc1ccc(C=C(C#N)C#N)cc1 [Tyrphostin 1]
nuclear count per well [1]: -0.159 | MALAT1 nuclear FISH intensity [2]: inactive: -1.73
